Measured values from several laboratories, pooled; numbers as filed in NIAID ChemDB.

Common to all: whole-cell or culture tests

Lines come from different laboratories, so protocols vary.

compound,organism,strain or isolate,mutations,cells,read by,conditions,read-out,dose,result
NC(=O)c1ncn([C@@H]2O[C@H](CO)[C@@H](O)[C@H]2O)n1,Respiratory syncytial virus,46,-,HEP-2,plaque count,-,inhibition,4 µg/mL,57%
COc1cc([C@@H]2c3cc4c(cc3[C@@H](O[C@@H]3O[C@@H]5CO[C@@H](C)O[C@H]5[C@H](O)[C@H]3O)[C@H]3COC(=O)[C@H]23)OCO4)cc(OC)c1O,Pneumocystis carinii,-,-,-,-,7 d,inhibition,10 µg/mL,85%
C#CC[C@@H](C(=O)N[C@H](/C=C/C(=O)OCC)C[C@@H]1CCNC1=O)n1cccc(NC(=O)c2cc(C)on2)c1=O,Rhinovirus,Serotype 28,-,H1-HELA,cytopathic effect / XTT,-,EC50,-,0.098 µM
O=C(O)/C=C/c1ccc(O)c(O)c1,Adenovirus,TYPE 11,-,BCC-1/KMC,cytopathic effect,-,EC50,-,>200 µg/mL
O=c1cnn([C@@H]2O[C@H](CO)[C@@H](O)[C@H]2O)c(=O)[nH]1,West Nile virus,NEW YORK,-,VERO,cytopathic effect / visual reading,-,EC50,-,1.5 µg/mL
CCn1cc(C(=O)O)c(=O)c2cc(F)c(N3CCNC(C)C3)c(F)c21,Vittaforma corneae,-,-,-,-,-,MIC50,-,3 µM
CN(C)[C@@H]1C(=O)C(C(N)=O)=C(O)[C@@]2(O)C(=O)C3=C(O)c4c(O)c(NC(=O)CNc5ccccc5)cc(F)c4C[C@H]3C[C@@H]12,Enterococcus faecalis,159-tet,-,-,agar diffusion,-,EC50,-,2 µg/mL
CC[C@H](/C=C/[C@@H](C)[C@H]1CC[C@H]2[C@@H]3CC(=O)[C@@]4(O)C[C@@H](Br)CC[C@]4(C)[C@H]3CC[C@]12C)C(C)C,Measles virus,MV/Brazil/001/91,-,VERO,plaque count,-,EC50,-,5 µM
NC12CC3CC(CC(C3)C1)C2,Influenza A virus,H3N2 AICHI/2/68,-,MDCK,plaque count,-,EC50,-,0.63 µg/mL
O=C/C=C/c1ccccc1,Aspergillus terreus,UAB698,-,-,agar,-,MIC,-,500 µM
CC[C@@H](C(C)C)[C@H](O)[C@@H](O)[C@@H](C)[C@H]1CC[C@H]2[C@@H]3CC(=O)[C@@]4(O)C[C@@H](Br)CC[C@]4(C)[C@H]3CC[C@]12C,Measles virus,MV/Brazil/001/91,-,VERO,plaque count,-,EC50,-,4 µM
COc1ccc(OC)c(C=O)c1,Aspergillus terreus,UAB680,-,-,agar,-,MIC,-,1500 µM
CCOC(=O)P(=O)(O)OCCOCn1cnc2c(=O)[nH]c(N)nc21,Herpes simplex virus 1,L2/R,-,VERO,cytopathic effect,-,EC95,-,661 µM
CC1COc2c(N3CCN(C)CC3)c(F)cc3c(=O)c(C(=O)O)cn1c23,Vittaforma corneae,-,-,-,-,-,MIC50,-,54 µM
Nc1nc2c(ncn2COC(CO)CO)c(=O)[nH]1,Human cytomegalovirus,AD169,-,MRC-5,plaque count,-,EC90,-,7.3 µM
N#Cc1c(Br)n([C@@H]2O[C@H](CO)[C@@H](O)[C@H]2O)c2ncnc(N)c12,West Nile virus,NEW YORK,-,VERO,cytopathic effect / visual reading,-,EC50,-,>10 µg/mL
O=c1cc(-c2ccc(O)c(O)c2)oc2cc(O)cc(O)c12,Adenovirus,TYPE 8,-,BCC-1/KMC,cytopathic effect,-,EC50,-,>25 µg/mL
CCC[C@@H]1C[C@@H](C(=O)N[C@@H]([C@H]2O[C@H](SC)[C@H](O)[C@@H](O)[C@H]2O)[C@H](C)Cl)N(C)C1,Pneumocystis carinii,-,-,-,-,10 d,inhibition,5 µg/mL,10%
COc1c(C)c2c(c(O)c1C/C=C(\C)CCC(=O)O)C(=O)OC2,West Nile virus,Uganda,-,VERO,cytopathic effect / visual reading,-,EC50,-,0.1 µg/mL
COc1ccc(O)c(C=O)c1,Aspergillus terreus,UAB680,-,-,agar,-,MIC,-,500 µM
NC(=O)c1c[se]c([C@@H]2O[C@H](CO)[C@@H](O)[C@H]2O)n1,West Nile virus,NEW YORK,-,VERO,cytopathic effect / visual reading,-,EC50,-,20 µg/mL
Nc1ncn([C@@H]2O[C@H](CO)[C@@H](O)[C@H]2O)c(=O)n1,Duck hepatitis B virus,-,-,Primary duck hepatocytes,antigen,-,EC50,-,30 µg/mL
Nc1ccn([C@@H]2C=C(CO)[C@@H](O)[C@@H]2O)c(=O)n1,West Nile virus,NEW YORK,-,MA-104,virus yield,-,EC90,-,1.4 µg/mL
CC(C)=CCN1Cc2cc(Cl)cc3[nH]c(=S)n(c23)C[C@@H]1C,HIV-1,-,RT-L74V K101E,MT-4,-,-,EC95,-,>3 µM
O=c1[nH]c(=O)n([C@@H]2O[C@H](CO)[C@@H](O)[C@H]2O)[nH]c1=S,West Nile virus,NEW YORK,-,VERO,cytopathic effect,-,EC50,-,8 µg/mL
NC(=O)c1[nH]nc([C@@H]2O[C@H](CO)[C@@H](O)[C@H]2O)c1O,Measles virus,Niigata-1,-,VERO,plaque count,-,EC50,-,0.11 µg/mL
Nc1nc2c(ncn2[C@H]2C[C@H](F)[C@@H](COP(=O)(O)OP(=O)(O)OP(=O)(O)O)O2)c(=O)[nH]1,Duck hepatitis B virus,-,-,HEPG,ELISA,-,EC50,-,0.1 µM
CC[C@@H](C(C)C)[C@H](O)[C@@H](O)[C@@H](C)[C@H]1CC[C@H]2[C@@H]3CC(=O)[C@@]4(O)C[C@@H](F)CC[C@]4(C)[C@H]3CC[C@]12C,Measles virus,MV/Brazil/001/91,-,VERO,plaque count,-,EC50,-,6 µM
CC1CCc2cc(F)cc3c(=O)c(C(=O)O)cn1c23,Vittaforma corneae,-,-,-,-,-,MIC50,-,132 µM
CC[C@@H](C(C)C)[C@@H](O)[C@H](O)[C@@H](C)[C@H]1CC[C@H]2[C@@H]3CC(=O)[C@@]4(O)C[C@H](O)[C@H](O)C[C@]4(C)[C@H]3CC[C@]12C,Measles virus,MV/Brazil/001/91,-,VERO,plaque count,-,EC50,-,131 µM
Nc1ncnc2c1ncn2[C@H]1[C@H](O)[C@H](O)[C@]2(CO)O[C@H]12,Measles virus,Niigata-1,-,VERO,plaque count,-,EC50,-,0.84 µg/mL
N=C(N)CCNC(=O)[C@H]1CCC(N)=N1,Parainfluenza virus,TYPE 3,-,-,-,-,MIC,-,12 µg/mL
Nc1ncnc2c1ncn2[C@@H]1C=C[C@@H](O)[C@H]1O,Measles virus,Niigata-1,-,VERO,plaque count,-,EC50,-,8.5 µg/mL
O=c1[nH]c(=O)n([C@H]2C[C@H](O)[C@@H](CO)O2)cc1Br,Duck hepatitis B virus,-,-,Primary duck hepatocytes,antigen,-,EC50,-,>50 µg/mL
CC1(C)CC[C@]2(C(=O)O)CC[C@]3(C)C(=CC[C@@H]4[C@@]5(C)CC[C@H](O)C(C)(C)[C@@H]5CC[C@]43C)[C@@H]2C1,Adenovirus,TYPE 8,-,BCC-1/KMC,cytopathic effect,-,EC50,-,>40 µg/mL
CC(C)CN(C[C@@H](O)[C@H](Cc1ccccc1)NC(=O)[C@H](CC(N)=O)NC(=O)c1ccc2ccccc2n1)C(=O)NC(C)(C)C,HIV-1,NL4-3,PR-L10R M46I L63P,MT-4,p24,-,EC95,-,0.2 µM
CC(C)=CCN1Cc2cc(Cl)cc3[nH]c(=S)n(c23)C[C@@H]1C,HIV-1,HXB2,RT-L74V,HT4 + HT4 LacZ-1,plaque count,-,fold resistance,-,1.45
Nc1nc2c(ncn2COCOCP(=O)(O)O)c(=O)[nH]1,Parainfluenza virus,14798 (TYPE 3),-,-,virus yield,-,EC90,-,40 µg/mL
NC(=O)c1ncn([C@@H]2O[C@H](CO)[C@@H](O)[C@H]2O)n1,Measles virus,Niigata-1,-,VERO,plaque count,-,EC50,-,8.5 µg/mL
NC(=O)c1[nH]nc([C@@H]2O[C@H](CO)[C@@H](O)[C@H]2O)c1O,West Nile virus,NEW YORK,-,VERO,cytopathic effect / visual reading,-,EC50,-,2.1 µg/mL
O=c1cc(-c2ccccc2)oc2cc(O)c(O)c(O)c12,Adenovirus,TYPE 11,-,BCC-1/KMC,cytopathic effect,-,EC50,-,>20 µg/mL
COc1c(N2CCNC(C)C2)c(F)cc2c(=O)c(C(=O)O)cn(C3CC3)c12,Vittaforma corneae,-,-,-,-,-,MIC50,-,73 µM
Nc1ncnc2c1ncn2CC(O)C(=O)O,Measles virus,Niigata-1,-,VERO,plaque count,-,EC50,-,62 µg/mL
CC(C)[C@H](NC(=O)c1ccc2ccccc2n1)C(=O)N[C@@H](Cc1ccccc1)[C@H](O)CN1CC[C@@H](OCc2ccncc2)C[C@H]1C(=O)NC(C)(C)C,SIV,MAC251,-,CEMx174,p27 / antigen,-,EC50,-,0.004 µM
O=C(O)P(=O)(O)O,Human cytomegalovirus,AD169,-,MRC-5,plaque count,-,EC90,-,150 µM
NC(=O)c1[nH]nc([C@@H]2O[C@H](CO)[C@@H](O)[C@H]2O)c1O,Duck hepatitis B virus,-,-,Primary duck hepatocytes,antigen,-,EC50,-,5.3 µg/mL
C[C@H]1NCc2cc(-c3ccc4c(=O)c(C(=O)O)cn(C5CC5)c4c3OC(F)F)ccc21,Haemophilus influenzae,35 strains,-,-,-,-,MIC90,-,0.03 µg/mL
C[C@@]1(O)[C@H](O)[C@@H](CO)O[C@H]1c1c[nH]c2c(N)ncnc12,Hepatitis C virus,-,-,HeLa-5B,MTT,-,inhibition,10 µg/mL,11.56%
Nc1ncnc2c1ncn2[C@@H]1C=C[C@@H](O)[C@H]1O,Duck hepatitis B virus,-,-,Primary duck hepatocytes,antigen,-,EC50,-,>100 µg/mL
Cc1ccc(C(=O)Nc2ccc(S(=O)(=O)O)c3cc(S(=O)(=O)O)cc(S(=O)(=O)O)c23)cc1NC(=O)c1cccc(NC(=O)Nc2cccc(C(=O)Nc3cc(C(=O)Nc4ccc(S(=O)(=O)O)c5cc(S(=O)(=O)O)cc(S(=O)(=O)O)c45)ccc3C)c2)c1,West Nile virus,Uganda,-,VERO,cytopathic effect,-,EC50,-,20 µg/mL
C[C@H](Cn1cnc2c(N)ncnc21)OCP(=O)(O)O,Duck hepatitis B virus,-,-,Primary duck hepatocytes,hybridisation,-,EC90,-,0.28 µM
CC(C)(C)NC(=O)[C@@H]1C[C@@H]2CCCC[C@@H]2CN1C[C@@H](O)[C@H](Cc1ccccc1)NC(=O)[C@H](CC(N)=O)NC(=O)c1ccc2ccccc2n1,HIV-1,NL4-3,PR-M46I,MT-4,p24,-,EC95,-,0.025 µM
CO[C@H]1O[C@@H](n2ccc(=O)[nH]c2=O)C[C@@H]1N=[N+]=[N-],Duck hepatitis B virus,-,-,Primary duck hepatocytes,antigen,-,EC50,-,100 µg/mL
C[C@@]1(O)[C@H](O)[C@@H](CO)O[C@H]1c1coc2c(N)ncnc12,Hepatitis C virus,-,-,HepG2-T5B,MTT,-,inhibition,2 µg/mL,6.15%
O=C(O)[C@H]1O[C@@H](Oc2cc3oc(-c4ccccc4)cc(=O)c3c(O)c2O)[C@H](O)[C@@H](O)[C@@H]1O,Adenovirus,TYPE 11,-,BCC-1/KMC,cytopathic effect,-,EC50,-,>50 µg/mL
Nc1cc2[nH]cnc2c(=O)[nH]1,Measles virus,Yamagata-1,-,VERO,plaque count,-,EC50,-,1.18 µg/mL
Nc1ncnc2c1ncn2C[C@@H](CO)OCP(=O)(O)O,Adenovirus,13306 (TYPE 8),-,-,virus yield,-,EC90,-,1 µg/mL

9 of the rows above, restated:

compound,organism,strain or isolate,mutations,cells,read by,conditions,read-out,dose,result
O=C/C=C/c1ccccc1,Aspergillus terreus,UAB698,-,-,agar,-,MIC,-,500 µM
CC(C)=CCN1Cc2cc(Cl)cc3[nH]c(=S)n(c23)C[C@@H]1C,HIV-1,-,RT-L74V K101E,MT-4,-,-,EC95,-,>3 µM
COc1ccc(O)c(C=O)c1,Aspergillus terreus,UAB680,-,-,agar,-,MIC,-,500 µM
O=C(O)[C@H]1O[C@@H](Oc2cc3oc(-c4ccccc4)cc(=O)c3c(O)c2O)[C@H](O)[C@@H](O)[C@@H]1O,Adenovirus,TYPE 11,-,BCC-1/KMC,cytopathic effect,-,EC50,-,>50 µg/mL
O=c1[nH]c(=O)n([C@@H]2O[C@H](CO)[C@@H](O)[C@H]2O)[nH]c1=S,West Nile virus,NEW YORK,-,VERO,cytopathic effect,-,EC50,-,8 µg/mL
NC12CC3CC(CC(C3)C1)C2,Influenza A virus,H3N2 AICHI/2/68,-,MDCK,plaque count,-,EC50,-,0.63 µg/mL
CCOC(=O)P(=O)(O)OCCOCn1cnc2c(=O)[nH]c(N)nc21,Herpes simplex virus 1,L2/R,-,VERO,cytopathic effect,-,EC95,-,661 µM
O=c1[nH]c(=O)n([C@H]2C[C@H](O)[C@@H](CO)O2)cc1Br,Duck hepatitis B virus,-,-,Primary duck hepatocytes,antigen,-,EC50,-,>50 µg/mL
O=C(O)/C=C/c1ccc(O)c(O)c1,Adenovirus,TYPE 11,-,BCC-1/KMC,cytopathic effect,-,EC50,-,>200 µg/mL

A number after MIC or MFC names an inhibition level or a share of isolates. Inhibition is in % at the dose shown (toxicity tests: loss of growth or viability). Fold resistance has wild type as its base. ECn is the concentration giving n% inhibition of infection, replication or growth. An empty or dashed field is not shown.